Laboratory results published in US20120294879A1, “CONSENSUS SEQUENCE FOR INFLUENZA A VIRUS” (priority 2009, published 2012).

Sequences of proteins named here, by UniProt entry; tags and fusion partners are left off.
UniProt Q8BHN5, whole entry, stated change not applied: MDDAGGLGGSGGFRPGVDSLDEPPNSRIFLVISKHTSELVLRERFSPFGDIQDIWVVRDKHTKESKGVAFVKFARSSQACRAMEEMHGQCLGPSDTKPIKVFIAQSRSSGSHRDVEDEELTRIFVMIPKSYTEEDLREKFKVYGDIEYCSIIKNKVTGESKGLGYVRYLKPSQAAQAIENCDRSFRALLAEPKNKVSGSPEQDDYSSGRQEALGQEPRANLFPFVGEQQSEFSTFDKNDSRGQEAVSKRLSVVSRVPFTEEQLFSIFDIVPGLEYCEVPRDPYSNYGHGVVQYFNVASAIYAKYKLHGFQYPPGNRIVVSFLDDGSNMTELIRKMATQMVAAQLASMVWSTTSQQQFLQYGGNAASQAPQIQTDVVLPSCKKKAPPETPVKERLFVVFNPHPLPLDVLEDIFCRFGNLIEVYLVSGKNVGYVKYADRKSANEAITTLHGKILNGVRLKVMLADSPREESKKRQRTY

Target: HLA-DR2 (DRB1*1501), chimeric DRA1*0101:I-Eα and DRB1*1501:I-Eβ, as expressed in HLA-DR2 transgenic mice (human; mouse) (UniProt Q8BHN5)
Test: cell-based or functional assay

Substance: PB1 548-564 peptide of influenza virus A/New York/348/2003 (H1N1)
- IFN-γ ELISpot at 10 µg/ml peptide, splenocytes of immunized HLA transgenic mice: 61
- lowest concentration of peptide giving positive ELISpot response: 1 µg/mL
